# Reference: patent US20150086555A1 (THERACLONE SCIENCES, published 2015)
# Numbering of substitutions follows the chain as printed.
# B1: TCN-526 (5084_C17) (antibody, V domains shown)
# VH: EVLMVESGGGLVQPGGSVRLSCVASGFSFSSHWMTWVRQAPGKGLEWVANIEDDGGDKYYVDSVKGRFIISRDNAKNSVYLQMNSLRAEDTAVYFCARGSGSSDRSDYDPHYYYYLDVWGKGATVTVSS
# VL: DIQLTQSPSSLSASVGDRVTITCRASQSISRYLNWYQQKPGKAPKLLLFAASTLLDGVPSRFSGSGSGTDFTLTISSLQPEDFATYYCQRNHSPSWTFGQGTRVEIK
# B2: TCN-523 (5248_A17) (antibody, V domains shown)
# VH: QVQLVQSGAEVKKPGSSVKVSCKASGGSFSNYAFSWVRQAPGQGLEWMGGTIPLLGTTNYAQKFQGRVTISADQFTSTAYMELGSLRSEDTAVYYCTRRKMTTAFDSWGQGTLVTVSS
# VL: QPVLTQPPSASASLGASVTLTCTLSSAYSNYKVDWYQQRPGKGPRFVMRVGTGGIVGSKGDGIPDRFSVLGSGLNRYLTIKNIQEEDESDYHCGADHGSGSNFVSPYVFGGGTKLTVL
# B3: TCN-552 (5249_I23) (antibody, V domains shown)
# VH: QVQVVQSGAEVKKPGSSVRVSCQASGGTFMNYAIIWVRRAPGQGLEWMGGIIPVFPTPNYAQMFQGRVTISTDESRSTSFLELTNLRYEDTAVYYCARRIYHGGNSGFDFWGQGTLVTVSS
# VL: EIVLTQSPATLSLSPGERATLSCRASQSVGNYLAWYQQKPGQAPRLLIYDSSNRAPGIPARFSGSGSGTDFTLTISSLAPEDFAVYYCQQRSKWPPMYSFGHGTKLEIK
# B4: TCN-558 (5248_H10b) (antibody, V domains shown)
# VH: QVQLVQSGSEVKKPGTSVKVSCTASGSVFTNYGISWVRQAPGQGLEWMGGIIPLFGAAKYAQKFQGRVTITADESTKTVYMELSRLTSKDTAIYFCAKAPRVYEYYFDQWGQGTPVTVSS
# VL: EIVMTQFPATLSVSPGERVTLSCRASQSVSNNLAWYQQKPGQPPRLLIYDASTRATGVPAKFSGTGSGTEFTLSISSLQSEDFAVYYCQQYHNWPPSYSFGLGTKLEIK
# B5: TCN-536 (5095_N01) (antibody, V domains shown)
# VH: QVQLQQWGAGLLKPSETLSLTCAVYGGSFSVSGYYWSWIRQPPGRGLEWIGEISHGGSTNYNPSLKSRVTISVDTTKNQFSLRLSSVTAADTAVYYCARGTDPDTEVYCRVGNCAAFDYWGQGSLVTVSS
# VL: EIILAQSPGTLSLSPGERATLSCRASQFVSTRSLAWYQQRPGQAPRLLIYGASSRATGIPDRFSGSGSGTDFTLTISRLEPEDFAVYYCQHYGYSPRYAFGQGSKVEIK
# B6: TCN-563 (5237_B21) (antibody, V domains shown)
# VH: QVQLAQSGAEVKRPGSSVKVSCTASGGIFRKNAISWVRQAPGQGLEWMGGIIAVFNTANYAQKFQGRVKITADESGNTAYMELSSLRSDDTAVYYCASHPKYFYGSGSYPDFWGQGTLVTVSS
# VL: QSALTQPRSVSGSPGQSVTISCTGSSSDVGASNSVSWYQQHPGKAPKLVIYDVTERPSGVPHRFSGSKSGNTASLTVSGLQPEDEADYFCCAYGGKYLVVFGGGTKVTVL
# B7: TCN-553 (5261_C18) (antibody, V domains shown)
# VH: QVQVVQSGTEVKKPGSSVKVSCQTSGGRFMSYAITWVRQAPGQGLEWMGGIVPVFGTANYAQKFQGRVTITTDDSTRTAYMELSSLRSEDTAVYYCGFRYGSGYGFDSWGQGTLVTVSS
# VL: EIVLTQSPGTLSLSPGERATLSCRASQSVSSSYLAWYQKKPGQAPRLLIYGASTRATGIPDRFTGSGSGTDFTLSISRLEPEDFAVYYCQHFGTSVFTFGGGTKVEIK
# B8: TCN-537 (3194_D21) (antibody, V domains shown)
# VH: QVQLQQWGSGLLKPSETLSLTCAVYGGSFRDDYWTWIRQPPGKGLEWIGEINHSGRTNYNPSLKSRVTISVDTSLKQFSLKVISVTAADTAVYYCARGTSHVSRYFDWLPPTNWFDPWGQGTQVTVSS
# VL: DIVLTQSPGTLSLSPGERATLSCRASQSVSSSYLAWYQQKPGQAPRLVMYGAATRATGIPDRFSGSGSGPDFTLTISRLEPEDFAMYYCQQYGNSPITFGQGTRLEIK
# B9: TCN-552 (5249_I23) (antibody, V domains shown)
# VH: B3 VH
# VL: B3 VL
# B10: TCN-538 (3206_O17) (antibody, V domains shown)
# VH: QITLKESGPTLVKPTQTLTLTCVFSGFSLSITGVRVGWIRQPPGKALEWLALISWDDEKHYSPSLQSRLTITKDTSKNQVVLTMTNLDPVDTATYYCARSTDRGHVLRYFGWMLPGDAFDVWGQGTMVTVSS
# VL: DIVMTQSPDFLPVSLGERATINCKSSQRVLYSSNNKNYLAWYQLKPGQPPKLIIYWASTRESGVPDRFSGSGSGTEFTLTISSLQAEDVAVYYCQQYYSRPYTFGQGTKLEIK
# B11: TCN-558 (5248_H10b) (antibody, V domains shown)
# VH: B4 VH
# VL: B4 VL
# B12: TCN-556 (5089_K12) (antibody, V domains shown)
# VH: QVQLVQSGAEVKKPGASVKVSCKASGYTFIGYDMHWVRQAPGQGLEWMGWINAKRGGTNYAQKFQGRVTMTRDTSISTAYMELNSLRSDDTAVYYCARGVGSRTTIFGVLNPEFDYWGQGTLVTVSS
# VL: QSALTQPPSASGSPGQSVTISCTGSSSDVGGYDYVSWYQQHPGKAPKLLIYEVTKRPSGVPDRFSGSKSGNTASLTVSGLQAEDEADYYCSSYAGNYNHVFGPGTKVTVL
# B13: TCN-551 (5243_D01) (antibody, V domains shown)
# VH: EVQLVQSGSEVKKPGESLKISCKGSGYSFSNYWIGWVRHMPGKGLEWMGIIYPGDSDTRYSPSFQGQVTMSADKSSSTVYLQWSSLKASDTAIYYCARRGGHSFGYGSGGDTHSEFDSWGQGTLVTVSS
# VL: QSVLTQSPSVSAAPGQKVTISCSGSDSNIGDYFVCWYQHLPGKPPQLLIYENNKRPSGIPDRFSGSKSGTSATLGITGIQTGDEADYYCATWDGSLSAWVFGGGTKLTVL
# B14: TCN-543 (5081_G23) (antibody, V domains shown)
# VH: QVHLVQSGAEVRKPGDSVKVSCKTSGYTFSTYPVAWVRQVPGQGLEWMGWISTYNGNTNFAQNFQGRVTLTTDTTTNTAYMEVRSLKFDDTAVYYCARVEGSYRDFWNNQNRFDPWGQGTLVTVSS
# VL: SYVLTQPPSVSVAPGQTARISCGGSNIGGKSVHWYQQKPGQAPVLVVYDDSGRPSGIPERFSGSNSGDTATLTISRVEAGDEADYFCQVWDNFGGVFGTGTKVTVL
# B15: TCN-545 (5082_I15) (antibody, V domains shown)
# VH: QVQLQQWGAGLLKPSETLSLSCAVFGGSFSDYYWTWIRQPPGKGLEWIGEIKHSGRTNYNPSLESRVTISVDTSKNQFSLKLSSVTAADTAIYYCARGTDPDTEGYCRSGSCSAFDFWGQGTLVTVSS
# VL: EIVLTQSPGTLSLSPGERATLSCRASHFVNYRSLAWYQQTPGQVPRLLIYGASTRATGIPDRFSGSGSGTDFTLTISRLEPEDFAVYFCQQYGGSPRYTFGQGTRLEIK
# B16: TCN-560 (5084_P10) (antibody, V domains shown)
# VH: EVQLVESGGGLVQPGGSLRLSCAASGFIFRNYWMSWVRQAPGKGLEWVANIKQDGREKYYVDSLRGRVNISRDNAENSLYLHMNSLRVEDTAVYFCARARMVVVTGDGFDVWGHGTMVTVSS
# VL: DIQMTQSPSSLSASVGDRVTITCRASQNIKRYFNWYQQKPGKAPKLLIYAASNLENGVPSRFSGSGSGTDFTLTISSLQPEDFATYYCQQSFSKSWTFGQGTNVDIK
# B17: TCN-555 (5246_L16) (antibody, V domains shown)
# VH: B6 VH with A5V, G66N, R87T
# VL: B6 VL with V18I, S25G, V29I, Y51F, E83D
# B18: TCN-553 (5261_C18) (antibody, V domains shown)
# VH: B7 VH
# VL: B7 VL
# B19: TCN-557 (5081_A04) (antibody, V domains shown)
# VH: QVQLVQSGAEVKKPGASVKVSCKASGHTFTGYYIHWVRQAPGQGLEWMGWINPDSGATSSAQNFQGRVTMTGDTSSSTAYMELSRLSFDDTAVYYCARVLFTSPFDFWGEGTLVTVSS
# VL: QAVVTQEPSLAVSPGGTVTLTCGSSTGAVTRGHYPYWFQQKPGQAPRALIYDSAGNRHSWTPARFSGSLLGGKAALTLSGAQPEDEAEYYCLLSYSGVWVFGGGTKLTVL
# Molecular target: hemagglutinin on whole influenza A virions, A/Solomon Islands/3/06 H1N1 (Influenza A virus A/Solomon …)
# Test: not given
row,Binder,ELISA: Virus Binding (OD450)
1,B1,0.07
2,B2,3.64

# Molecular target: hemagglutinin on whole influenza A virions, A/Wisconsin/67/05 H3N2 (Influenza A virus …)
# Test: not given
row,Binder,ELISA: Virus Binding (OD450)
1,B1,2.84
2,B3,0.12
3,B4,0.13
4,B5,3.6
5,B6,0.12
6,B2,0.13
7,B7,0.16

# Molecular target: T1, Hemagglutinin (HA) of influenza A virus A/Wisconsin/67/05 H3N2, on whole virions (Influenza A virus A/Wisconsin/67/2005 …)
# T1 construct: whole, on cells
# Test: ELISA on coated inactivated whole virions; transfection supernatant, set 5
row,Binder,ELISA virus binding (OD450)
1,B8,0.11
2,B9,0.27
3,B10,0.12
4,B11,0.2
5,B12,0.34
6,B13,0.27
7,B14,2.23
8,B15,3.62
9,B16,0.3
10,B17,0.13
11,B18,0.17
12,B19,3.47

# Molecular target: Hemagglutinin (HA) of influenza A virus A/Japan/305/57 H2N2, on whole virions (Influenza A virus A/Japan/305/1957 …)
# Test: not given
row,Binder,ELISA virus binding (OD450)
1,B8,3.48
2,B9,2.68
3,B10,3.37
4,B11,3.31
5,B13,0.1
6,B14,3.64
7,B15,0.1
8,B16,3.55
9,B17,2.1
10,B18,3.28
11,B19,3.59
